Activity calls are given as the source filed them. No cut-off for these calls is given here.
Molecular target: Protease (Human immunodeficiency virus 1) (UniProt Q9YQ12)
Assay: Competitive inhibition of recombinant HIV-1 protease expressed in Escherichia coli using Arg-Glu (EDANS)-Ser-Gln-Asn-Tyr-Pro-Ile-Val-Gln Lys(DABCYL)-Arg as substrate up to 60 uM by Michalies-Menten analysis

CCCCCCCCCCNC(=O)CN1C(=O)[C@@H](CC(C)C)N=C(C)c2ccc(C(=O)O)cc21
inhibition: Active
